Reference: patent publication US20220251174A1

Target: SARS-CoV-2 Spike protein (D614G) on authentic virus BetaCoV/Munich/BavPat1/2020
Assay: cell-based or functional assay

| Substance | IC50 in authentic virus (D614G strain) neutralization assays [µg/mL] |
| --- | --- |
| REGN10933 (benchmark, human IgG1) (antibody) | 0.7 |
| REGN10987 (benchmark, human IgG1) (antibody) | 10.5 |
